The data set in a line: general procedure: Fmoc solid-phase peptide synthesis. Particulars: whole synthesis.

Strings that start with PEPTIDE1 are HELM notation: dots part the residues, brackets hold end groups and non-standard residues.

On to “PEPTIDE1{[FAM].[bAla].A.A.A.E.[R8].T.L.Q.E.L.L.[S5].[am]}$PEPTIDE1,PEPTIDE1,7:R3-14:R3$$$V2.0”, for which the “final HPLC purity” value is given as 98%.

For FAM-βAla-AAA(S5)LTL(S5)ELLG-CONH2, the “final HPLC purity” value is 100%.

Take “PEPTIDE1{[FAM].[bAla].A.[R8].A.E.L.T.L.Q.[S5].L.L.G.[am]}$PEPTIDE1,PEPTIDE1,4:R3-11:R3$$$V2.0”: the “final HPLC purity” value is reported as 96%.

Take “PEPTIDE1{[ac].W.[bAla].A.A.A.E.L.T.L.Q.E.L.L.[Dap(CAA)].[am]}$$$$V2.0”: the “final HPLC purity” value turned out to be 100%.

“PEPTIDE1{[FAM].[bAla].A.A.A.E.[S5].T.L.Q.[S5].L.L.G.[am]}$PEPTIDE1,PEPTIDE1,7:R3-11:R3$$$V2.0”: the “final HPLC purity” value was found to be 100%.

Take “PEPTIDE1{[FAM].[bAla].A.A.A.E.L.T.L.Q.E.L.L.G.[am]}$$$$V2.0”: the “final HPLC purity” value amounted to 99%.

Turning to “PEPTIDE1{[FAM].[bAla].[S5].A.A.E.[S5].T.L.Q.E.L.L.G.[am]}$PEPTIDE1,PEPTIDE1,3:R3-7:R3$$$V2.0”, the “final HPLC purity” value is reported as 100%.

Consider Ac-W-βAla-AAAELΤLQELL(BAA)-CONH2, for which the “final HPLC purity” value amounted to 99%.

Consider “PEPTIDE1{[FAM].[bAla].A.A.A.E.L.T.L.Q.E.L.L.[Dap(BAA)].[am]}$$$$V2.0”, for which the “final HPLC purity” value is recorded as 100%.

On to “PEPTIDE1{[FAM].[bAla].[R8].A.A.E.L.T.L.[S5].E.L.L.[Dap(CAA)].[am]}$PEPTIDE1,PEPTIDE1,3:R3-10:R3$$$V2.0”, for which the “final HPLC purity” value stood at 95%.

Turning to “PEPTIDE1{[ac].W.[bAla].A.A.A.E.L.T.L.Q.E.L.L.[Dap(ACA)].[am]}$$$$V2.0”, the “final HPLC purity” value stood at 98%.

Regarding “PEPTIDE1{[FAM].[bAla].A.A.A.E.L.T.L.Q.E.L.L.[Dap(ACA)].[am]}$$$$V2.0”, the “final HPLC purity” value stood at 99%.

For “PEPTIDE1{[FAM].[bAla].A.A.A.E.L.T.L.[S5].E.L.L.[S5].[am]}$PEPTIDE1,PEPTIDE1,10:R3-14:R3$$$V2.0”, the “final HPLC purity” value worked out at 97%.

Take “PEPTIDE1{[FAM].[bAla].A.A.A.E.L.T.L.Q.E.L.L.[Dap(CAA)].[am]}$$$$V2.0”: the “final HPLC purity” value is given as 100%.

Turning to “PEPTIDE1{[FAM].[bAla].[R8].A.A.E.L.T.L.[S5].E.L.L.G.[am]}$PEPTIDE1,PEPTIDE1,3:R3-10:R3$$$V2.0”, the “final HPLC purity” value amounted to 97%.

The values are drawn from paper PMC11934087 (ACS Chemical Biology, 2025).
